The values that follow come from patent publication US11850237B2, “Compounds and methods for treating influenza” (priority 2009, dated 2023).

Structures are written as SMILES. Where only a bound is given, the exact number is not on record here.

For this series, the system named is H1N1 A/PR/8/34 (PR8). The format is cell-based, influenza A virus. The note with it: PR8, MDCK cells.

Turning to `O=C(Nc1ncc([N+](=O)[O-])s1)c1ccccc1[O-].[Na+]` [Compound 3, tizoxanide sodium salt], the “S.I. LD50/EC50” value is on record as more than 125.
As to `CC(=O)Oc1ccccc1C(=O)Nc1nc([S+](C)[O-])cs1` (stereo not drawn) [Compound 29], the “S.I. LD50/EC50” value was more than 5.
Then `CS(=O)(=O)c1csc(NC(=O)c2ccccc2O)n1` [Compound 28], with more than 500; and `O=C(Nc1nc(S(=O)(=O)C2CCCCC2)cs1)c1ccccc1O` [Compound 39], with more than 5; and `CCOC(=O)Oc1ccccc1C(=O)Nc1ncc([N+](=O)[O-])s1` [Compound 15], with 30.
For `CC(=O)Oc1ccccc1C(=O)Nc1ncc([N+](=O)[O-])s1` [Compound 1, nitazoxanide] the value was more than 50; for `CC(=O)Oc1ccc(C(=O)Nc2ncc(S(C)(=O)=O)s2)cc1` [Compound 63], more than 5; for `CC(=O)Oc1ccccc1C(=O)Nc1nc(S(=O)(=O)C(C)C)cs1` [Compound 36], more than 50.
For `C[S+]([O-])c1csc(NC(=O)c2ccccc2O)n1` (stereo not drawn) [Compound 30] the value was more than 5; for `O=C(Nc1ncc([N+](=O)[O-])s1)c1ccccc1O` [Compound 2, tizoxanide], more than 50.
For `CC(C)S(=O)(=O)c1csc(NC(=O)c2ccccc2O)n1` [Compound 37], the “S.I. LD50/EC50” value is given as more than 83.3.
Then `CS(=O)(=O)c1cnc(NC(=O)c2ccccc2[O-])s1.[Na+]` [Compound 54], with more than 5; and `O=C(Oc1ccccc1C(=O)Nc1ncc([N+](=O)[O-])s1)c1ccccc1` [Compound 17], with more than 16.7; and `CC(=O)Oc1ccccc1C(=O)Nc1nc(S(C)(=O)=O)cs1` [Compound 27], with more than 500.
For `CCCCS(=O)(=O)c1cnc(NC(=O)c2ccccc2OC(C)=O)s1` [Compound 59] the value was more than 10.
On to `CS(=O)(=O)c1cnc(NC(=O)c2ccccc2O)s1` [Compound 53], for which the “S.I. LD50/EC50” value was more than 5.
Then `CC(=O)Oc1ccccc1C(=O)Nc1nc(S(=O)(=O)C2CCCCC2)cs1` [Compound 38], with more than 2; and `CC(=O)Oc1ccccc1C(=O)Nc1ncc(S(C)(=O)=O)s1` [Compound 52], with more than 1.6; and `CC(=O)Oc1ccccc1C(=O)Nc1ncc(S(=O)(=O)c2ccc([N+](=O)[O-])cc2)s1` [Compound 51], with 9.
On to `CCC(=O)Oc1ccccc1C(=O)Nc1ncc([N+](=O)[O-])s1` [Compound 16], for which the “S.I. LD50/EC50” value came out at 20.
Consider `CC(C)COC(=O)Oc1ccccc1C(=O)Nc1ncc([N+](=O)[O-])s1` [Compound 14], for which the “S.I. LD50/EC50” value was 20.
